Activity change, negative = inhibition data for nine molecules are collected here from PubChem BioAssay AID651820 (National Center for Advancing Translational Sciences (NCATS), 2012).

This is a selection; strong and weak results do not stand in their true shares. Records with an inconclusive call do not appear. Some salts or complexes appear as unconnected parts, following the source record. Calls of active or inactive are those of the source. Calls come from the whole dose curve; as a rule, active = well fitted inhibition curve with a large enough effect; inconclusive = small, poorly fitted or top-dose-only effect, or another doubt; inactive = no such curve, though single readings can be large or run the other way.
% is set by controls: 0 for no effect and ±100 for the full control effect.

A short description of this assay: qHTS Assay for Inhibitors of Hepatitis C Virus (HCV). As to conditions: Huh7.5.1 HCVcc-Cre (HCVcc is cell-culture hepatitis C virus) infection, luciferase reporter, 44 h; at 41.8 µM (top of the series). An excerpt:
Hepatitis C virus (HCV) infects about 200 million people in the world. Many infected people progress to chronic liver disease including cirrhosis with a risk of developing liver cancer. To date, there is no effective vaccine for hepatitis C. Current therapy based on interferon is only effective in about half of the patients and is associated with significant adverse effects. The fraction of people with HCV who can complete a successful treatment is estimated to be no more than 10 percent. Recent development of direct-acting antivirals against HCV, such as protease and polymerase inhibitors, is promising but still requires combination with peginterferon and ribavirin for maximal efficacy. In addition, these agents are associated with high rate of resistance and many have significant side effects. Due to the lack of a culture system for infectious HCV, the search for new HCV drugs has been greatly hampered. […] High-throughput screening (HTS) with an infectious HCV system would cover the complete spectrum of potentially druggable targets in all stages of HCV lifecycle, and would have more biological relevance than other cell-based assays. Moreover, targeting several key processes in the viral life cycle may not only increase antiviral efficacy; more importantly, it may also reduce the capacity of the virus to develop resistance to the compound. The goal of this project is to identify novel HCV inhibitors as new therapies for hepatitis C, using a highly sensitive and specific assay platform which is based on a HCV infectious cell culture system established in the laboratory and adapted for high-throughput HCV drug screen. NIH Chemical Genomics Center [NCGC] NIH Molecular Libraries Probe Centers Network [MLPCN] MLPCN Grant: MH095511 Assay Submitter (PI): Jake Liang, NIDDK
The assay will start with plating 1,000 cells/well in 3 µL volume and culture for 4 h. Then 23 nL of compounds from the library collection will be added to each well, followed by adding 2.5 µL of HCVcc-Cre virus (~ 0.5 moi) and further cultured for 44 h before the luciferase assay. A volume of 4.5 µL luciferase substrates will be added to each well and the plates will be incubated at room temperature for 15 min. and then read for 15 sec. for the luciferase activity
(In general: In qHTS, concentration-response curves come from the screen itself.)
Turning to `O=[N+]([O-])c1cc([N+](=O)[O-])c(OC2CCCCC2O)c([N+](=O)[O-])c1` (centres undefined), the activity change, negative = inhibition is inactive: 30.8%.

As for `O=C(OC1CN2CCC1CC2)c1ccc([N+](=O)[O-])cc1` (centres undefined), the activity change, negative = inhibition was inactive: 5.07%.

Consider `COc1ccc2c(c1O)-c1c(O)c(OC)cc3c1[C@H](C2)[N+](C)(C)CC3.O=[N+]([O-])c1cc([N+](=O)[O-])c([O-])c([N+](=O)[O-])c1[O-]`, for which the activity change, negative = inhibition is inactive: 9.67%. As for `O=C1C(O)=C([N+](=O)[O-])C(=O)C(O)=C1[N+](=O)[O-]`, the activity change, negative = inhibition is inactive: -1.23%. Take `O=P1(N(CCCl)CCCl)SCCCS1`: the activity change, negative = inhibition is inactive: 0.736%. Under `Cn1c(=O)[nH]cc(N(CCCl)CCCl)c1=O` stands inactive: -18%; under `O=C(O)c1cccc(Nc2c([N+](=O)[O-])cc([N+](=O)[O-])cc2[N+](=O)[O-])c1`, inactive: -12.7%; under `N/C(=N\O)c1c(N)no[n+]1[O-]`, inactive: -11.3%. Consider `CCOC(=O)C(CC)C1=NC(C)(C)Cc2ccccc21.O=[N+]([O-])c1cc([N+](=O)[O-])c(O)c([N+](=O)[O-])c1` (centres undefined), for which the activity change, negative = inhibition was inactive: 14.2%.
